How the values were obtained:
Assay in all cases: ELISA on coated HA
[1] = target: H3N2 A/Wyoming/3/03 HA protein (influenza A virus H3N2 A/Wyoming/3/03)
[2] = target: H3N2 A/New York/55/04 HA protein (influenza A virus H3N2 A/New York/55/04)
[3] = target: H3N2 A/Brisbane/10/07 HA protein (influenza A virus H3N2 A/Brisbane/10/07)

B1: FI6 variant 2 (antibody, V domains shown)
VH: QVQLVQSGGGVVQPGRSLRLSCVASGFTFSTYAMHWVRQAPGRGLEWVAVISYDGNYKYYADSVKGRFSISRDNSNNTLHLEMNTLRTEDTALYYCAKDSQLRSLLYFEWLSQGYFDPWGQGTLVTVTS
VL: DIQMTQSPDSLAVSLGARATINCKSSQSVTFNYKNYLAWYQQKPGQPPKVLIYWASARESGVPDRFSGSGSGTDFTLTISSLQAEDVAVYYCQQHYRTPPTFGQGTKVEIK
**Q.** Which EC50 [1] does the source give for B1 here?
**A.** 0.019 mg/L

**Q.** And the EC50 [2]?
**A.** 0.032 mg/L

**Q.** What about the EC50 [3] of the same binder?
**A.** 0.041 mg/L

From patent publication US20110274702A1 (INSTITUTE FOR RESEARCH IN BIOMEDICINE, published 2011)
